System: microorganisms derived from activated sludge
Assay: OECD 301 F biodegradation (manometric respirometry)
Details: aerobic

Substance | OECD 301F Biodegradation, % [%]
2EH(PO)5(EO)9 [Example 8] | 79
C9(PO)4(EO)8 [Example 10] | 70

— patent US20110098492A1, “CLEANING COMPOSITIONS CONTAINING MID-RANGE ALKOXYLATES” (priority 2008, published 2011)
